In this data set the test system is Nc1ncnc2c1ncn2[C@@H]1O[C@H](COP(=O)(O)OP(=O)(O)OP(=O)(O)O)[C@@H](O)[C@H]1O. The experiment in a line: purified protein. As to conditions: pH 7.5; 37.0 °C.

With “RecGMtb (Mycobacterium tuberculosis H37Rv)”, the Km is recorded as 202 (±35) µM.

The values are drawn from article PMC3542137, “Mycobacterium tuberculosis RecG binds and unwinds model DNA substrates with a preference for Holliday junctions”.
